Converted amounts (≈) assume the structure as drawn.
Experiments:
Mycobacterium avium [1] = test: Antimycobacterial activity against Mycobacterium avium CNCTC My 330/88 after 14 days by microdilution method; assay type: functional
Mycobacterium avium [2] = test: Antimycobacterial activity against Mycobacterium avium CNCTC My 330/88 after 21 days by microdilution method; assay type: functional
[3] = tested on: Mycobacterium tuberculosis; test: Antimycobacterial activity against multi drug resistant Mycobacterium tuberculosis 9449/2007 after 14 days by microdilution method; assay type: functional
[4] = tested on: Mycobacterium tuberculosis; test: Antimycobacterial activity against multi drug resistant Mycobacterium tuberculosis 8666/2010 after 14 days by microdilution method; assay type: functional
[5] = tested on: Mycobacterium tuberculosis; test: Antimycobacterial activity against multi drug resistant Mycobacterium tuberculosis Praha 1 after 14 days by microdilution method; assay type: functional
[6] = tested on: Mycobacterium tuberculosis; test: Antimycobacterial activity against multi drug resistant Mycobacterium tuberculosis Praha 131 after 14 days by microdilution method; assay type: functional
[7] = tested on: Mycobacterium tuberculosis; conditions: 234/2005
[8] = tested on: Mycobacterium tuberculosis; conditions: Praha 4

O=[N+]([O-])c1cccc(-c2nnc(SCc3cc([N+](=O)[O-])cc([N+](=O)[O-])c3)o2)c1
MIC>99 (Mycobacterium avium [1]): 16 µM (≈ 6.45 µg/mL) | MIC>99 (Mycobacterium avium [2]): 16 µM (≈ 6.45 µg/mL)

O=[N+]([O-])c1ccc(-c2nnc(SCc3cc([N+](=O)[O-])cc([N+](=O)[O-])c3)o2)cc1
MIC>99 (Mycobacterium avium [1]): > 125 µM | MIC>99 (Mycobacterium avium [2]): > 125 µM | MIC>99 [3]: 0.06 µM (≈ 0.0242 µg/mL) | MIC>99 [4]: 0.06 µM (≈ 0.0242 µg/mL) | MIC>99 [5]: 0.06 µM (≈ 0.0242 µg/mL) | MIC>99 [6]: 0.06 µM (≈ 0.0242 µg/mL) | MIC>99 [7]: 0.06 µM (≈ 0.0242 µg/mL) | MIC>99 [8]: 0.06 µM (≈ 0.0242 µg/mL)

O=[N+]([O-])c1ccc(-c2nnc(SCc3cc([N+](=O)[O-])cc([N+](=O)[O-])c3)s2)cc1
MIC>99 (Mycobacterium avium [1]): > 16 µM | MIC>99 (Mycobacterium avium [2]): > 16 µM | MIC>99 [3]: 0.06 µM (≈ 0.0252 µg/mL) | MIC>99 [4]: < 0.03 µM | MIC>99 [5]: 0.06 µM (≈ 0.0252 µg/mL) | MIC>99 [6]: 0.06 µM (≈ 0.0252 µg/mL) | MIC>99 [7]: 0.06 µM (≈ 0.0252 µg/mL) | MIC>99 [8]: 0.06 µM (≈ 0.0252 µg/mL)

O=[N+]([O-])c1ccc(-c2nnc(SCc3ccc([N+](=O)[O-])cc3[N+](=O)[O-])o2)cc1
MIC>99 (Mycobacterium avium [1]): > 125 µM | MIC>99 (Mycobacterium avium [2]): > 125 µM

O=[N+]([O-])c1cccc(-c2nnc(SCc3ccc([N+](=O)[O-])cc3[N+](=O)[O-])o2)c1
MIC>99 (Mycobacterium avium [1]): 32 µM (≈ 12.9 µg/mL) | MIC>99 (Mycobacterium avium [2]): 32 µM (≈ 12.9 µg/mL)

O=[N+]([O-])c1cccc(-c2nnc(SCc3cc([N+](=O)[O-])cc([N+](=O)[O-])c3)s2)c1
MIC>99 (Mycobacterium avium [1]): > 16 µM | MIC>99 (Mycobacterium avium [2]): > 16 µM

O=[N+]([O-])c1ccc(-c2nnc(SCc3ccc([N+](=O)[O-])cc3[N+](=O)[O-])s2)cc1
MIC>99 (Mycobacterium avium [1]): 250 µM (≈ 105 µg/mL) | MIC>99 (Mycobacterium avium [2]): 250 µM (≈ 105 µg/mL)

From ChEMBL document CHEMBL3797190, “Development of 3,5-Dinitrobenzylsulfanyl-1,3,4-oxadiazoles and Thiadiazoles as Selective Antitubercular Agents Active Against Replicating and Nonreplicating Mycobacterium tuberculosis” (J Med Chem, 2016)
